Pooled drug test results. Numbers come from NIAID ChemDB, via PubChem.

Shared fields: host cell toxicity; cell line: MT-4; read-out: CC50

An empty or dashed field is not shown. CCn: concentration that lowers growth or viability of the cells by n%. Rows are shuffled and stem from different studies.

SMILES,read by,value
O=C1CSC(c2c(Cl)cccc2Cl)N1Cc1cccs1,,41.33 µM
CCOC(=O)CCc1nc(-c2ccc(S(=O)(=O)N(CC(C)C)C[C@@H](O)[C@H](Cc3ccccc3)NC(=O)O[C@H]3CO[C@H]4OCC[C@H]43)cc2)co1,MTT,>100 µM
O=c1ccn([C@H]2C=C[C@@H](O)CC2)c(=O)[nH]1,MTT,>25 µg/mL
CC(C)(C)OC(=O)N1CCC(=O)C1,,>100 µM
COc1ccc(/C=C2\C(=O)N(CCc3ccc(OC)c(OC)c3)C(=S)N2CCc2ccc(OC)c(OC)c2)cc1,MTT,82.3 µg/mL
COC(=O)C(NC(=O)CCCN1C(=O)c2ccccc2C1=O)C(C)O,MTT,37.82 µM
CC(C)CN(C[C@@H](O)[C@H](Cc1ccc(F)cc1)NC(=O)O[C@H]1C2COC3OCC1C3C2)S(=O)(=O)c1ccc2nc(NC3CC3)sc2c1,,11 µM
Cn1cccc1CN1C(=O)CSC1c1c(F)cccc1Cl,,69.37 µM
CC(C)(C)NC(=O)[C@@H]1CN(Cc2cccnc2)CCN1C[C@H](C[C@@H](Cc1ccccc1)C(=O)N[C@H]1c2ccccc2C[C@H]1OC(=O)CCCCOc1ccc(C[C@H](N)C(=O)O)cc1)OC(=O)CCCCOc1ccc(C[C@H](N)C(=O)O)cc1,MTT,>100 µM
O=C(NCc1c(F)cc(F)cc1F)c1cn2c(c(O)c1=O)C(=O)N[C@H]1COCC[C@H]12,luminescence,38.3 µM
COc1ccc(CCN2C(=O)/C(=C\c3cccc(Br)c3)N(CCc3ccc(OC)c(OC)c3)C2=S)cc1OC,MTT,108 µg/mL
O=c1ccn([C@@H]2O[C@H](CO)[C@@H](F)[C@H]2F)c(=O)[nH]1,,>500 µM
COc1ccc(CCN2C(=O)/C(=C\c3ccccc3Cl)N(CCc3ccc(OC)c(OC)c3)C2=S)cc1OC,MTT,19.5 µg/mL
S=C(NCc1ccco1)Nc1ccc(Cl)c(Cl)c1,MTT,35.7 µM
Nc1ncnc2c1ncn2[C@H]1C[C@H](N)[C@@H](CO)O1,trypan blue,104 µg/mL
[N-]=[N+]=N[C@H]1[C@@H](F)[C@H](n2ccc(=O)[nH]c2=O)O[C@@H]1CO,,46 µM
CC(C)(C)OC(=O)NCC(=O)N1CCC(=O)C1,,>100 µM
CC(C)C[C@H](NC(=O)OC(C)(C)C)C(=O)O[C@@H]1Cc2ccccc2[C@@H]1NC(=O)[C@H](Cc1ccccc1)C[C@H](O)CN1CCN(Cc2cccnc2)C[C@H]1C(=O)NC(C)(C)C,MTT,>100 µM
CC(C)CN(C[C@@H](O)[C@H](Cc1ccccc1)NC(=O)O[C@H]1CO[C@H]2OCC[C@H]21)S(=O)(=O)c1ccc(-c2csc(N)n2)cc1,MTT,85.1 µM
O=c1ccn([C@@H]2C=C[C@H](O)CC2)c(=O)[nH]1,MTT,>25 µg/mL
NC[C@@H]1C[C@@H](O)[C@H](n2cnc3c(N)ncnc32)O1,trypan blue,>500 µg/mL
O=C1C=C[C@@H](n2cnc3c(Cl)ncnc32)CC1,MTT,0.5 µg/mL
CC(C)(C)NC(=O)[C@@H]1CN(Cc2cccnc2)CCN1C[C@@H](O)C[C@@H](Cc1ccccc1)C(=O)N[C@H]1c2ccccc2C[C@H]1OC(=O)[C@H](Cc1ccccc1)NC(=O)OC(C)(C)C,MTT,>100 µM
S=C(Nc1ccccc1Br)NC1CCN(Cc2ccccc2)CC1,MTT,58 µM
O=C(CCCN1C(=O)c2ccccc2C1=O)NC(=S)NC(Cc1ccc(O)cc1)C(=O)O,MTT,37.82 µM
COc1ccc(CCN2C(=O)/C(=C\c3cccc(Cl)c3)N(CCc3ccc(OC)c(OC)c3)C2=S)cc1OC,MTT,47.2 µg/mL
S=C(NCc1ccco1)Nc1cccc(Br)c1,MTT,38.2 µM
Cc1c(OC(=O)CCCCOc2ccc(C[C@H](N)C(=O)O)cc2)cccc1C(=O)N[C@@H](CSc1ccccc1)[C@H](O)CN1C[C@H]2CCCC[C@H]2C[C@H]1C(=O)NC(C)(C)C,MTT,>100 µM
CC(C)(C)OC(=O)NCC(=O)N1CCC(O)C1,,>100 µM
COc1ccc(CCN2C(=O)/C(=C\c3cc(OC)c(OC)c(OC)c3)N(CCc3ccc(OC)c(OC)c3)C2=S)cc1OC,MTT,13.7 µg/mL
Fc1ccccc1NC(=S)NCc1ccco1,MTT,100 µM
CC(C)(C)OC(=O)NC(Cc1ccc(OCc2ccccc2)cc1)C(=O)N1CCC(=O)C1,,50 µM
S=C(NCc1ccco1)Nc1ccccc1Cl,MTT,≥100 µM
Cc1c(O)cccc1C(=O)N[C@@H](CSc1ccccc1)[C@@H](CN1C[C@H]2CCCC[C@H]2C[C@H]1C(=O)NC(C)(C)C)OC(=O)CCCCOc1ccc(C[C@H](NC(=O)OC(C)(C)C)C(=O)O)cc1,MTT,>100 µM
Cc1ccc(NC(=S)NC2CCN(Cc3ccccc3)CC2)cc1Cl,MTT,11.6 µM
O=C1CSC(c2c(F)cccc2Cl)N1Cc1cccs1,,41.58 µM
Cc1c(OC(=O)CCCCOc2ccc(C[C@H](NC(=O)OC(C)(C)C)C(=O)O)cc2)cccc1C(=O)N[C@@H](CSc1ccccc1)[C@H](O)CN1C[C@H]2CCCC[C@H]2C[C@H]1C(=O)NC(C)(C)C,MTT,>100 µM
NC[C@H]1O[C@@H](n2cnc3c(N)ncnc32)C[C@H]1N,trypan blue,>500 µg/mL
CC(C)(C)NC(=O)[C@@H]1C[C@@H]2CCCC[C@@H]2CN1C[C@@H](OC(=O)NCCCCOc1ccc(C[C@H](N)C(=O)O)cc1)[C@H](Cc1ccccc1)NC(=O)[C@H](CC(N)=O)NC(=O)c1ccc2ccccc2n1,MTT,>100 µM
S=C(Nc1ccc(Cl)cc1)NC1CCN(Cc2ccccc2)CC1,MTT,18 µM
CCCCCCCCCCCCCCCC(=O)OCC(COC(=O)CCCCCCCCCCCCCCC)OC(=O)CCC(=O)O[C@@H](C[C@@H](Cc1ccccc1)C(=O)N[C@H]1c2ccccc2C[C@H]1OC(=O)CCC(=O)OC(COC(=O)CCCCCCCCCCCCCCC)COC(=O)CCCCCCCCCCCCCCC)CN1CCN(Cc2cccnc2)C[C@H]1C(=O)NC(C)(C)C,MTT,>100 µM
Cc1cn([C@@H]2O[C@H](CO)C[C@@H]2F)c(=O)[nH]c1=O,,>500 µM
Cc1ccnc2c1NC(=O)c1cccnc1N2C1CC1,MTT,>4 µM
NC[C@H]1O[C@@H](n2cnc3c(N)ncnc32)C[C@@H]1O,trypan blue,>500 µg/mL
Cc1ccc(Cl)cc1NC(=S)NCc1ccco1,MTT,100 µM
Cc1cn([C@H]2C[C@H](N=[N+]=[N-])[C@@H](CP(=O)(O)O)O2)c(N)nc1=O,,58.62 µg/mL
Clc1ncnc2c1ncn2[C@H]1C=CC2(CC1)O[C@H](c1ccccc1)[C@@H](c1ccccc1)O2,MTT,6.4 µg/mL
NC(N)=NCCCC(NC(=S)NC(=O)CCCN1C(=O)c2ccccc2C1=O)C(=O)O,MTT,12.6 µM
Fc1ccc(NC(=S)NC2CCN(Cc3ccccc3)CC2)cc1Cl,MTT,15.7 µM
CC(=O)Nc1ncc(-c2ccc(S(=O)(=O)N(CC(C)C)C[C@@H](O)[C@H](Cc3ccccc3)NC(=O)O[C@H]3CO[C@H]4OCC[C@H]43)cc2)[nH]1,MTT,>100 µM
CC(C)CN(C[C@@H](O)[C@H](Cc1ccccc1)NC(=O)O[C@H]1C2COC3OCC1C3C2)S(=O)(=O)c1ccc2nc(NC3CC3)sc2c1,,23 µM

5 of the rows above, restated:

| SMILES | read by | value |
|---|---|---|
| COc1ccc(CCN2C(=O)/C(=C\c3cccc(Cl)c3)N(CCc3ccc(OC)c(OC)c3)C2=S)cc1OC | MTT | 47.2 µg/mL |
| O=C1CSC(c2c(Cl)cccc2Cl)N1Cc1cccs1 |  | 41.33 µM |
| CC(C)(C)NC(=O)[C@@H]1C[C@@H]2CCCC[C@@H]2CN1C[C@@H](OC(=O)NCCCCOc1ccc(C[C@H](N)C(=O)O)cc1)[C@H](Cc1ccccc1)NC(=O)[C@H](CC(N)=O)NC(=O)c1ccc2ccccc2n1 | MTT | >100 µM |
| O=c1ccn([C@H]2C=C[C@@H](O)CC2)c(=O)[nH]1 | MTT | >25 µg/mL |
| COC(=O)C(NC(=O)CCCN1C(=O)c2ccccc2C1=O)C(C)O | MTT | 37.82 µM |